{"sequences": {"note": "Sequences of proteins named here, by UniProt entry; tags and fusion partners are left off. Residues count along the entry.", "UniProt P04925, 23-230": "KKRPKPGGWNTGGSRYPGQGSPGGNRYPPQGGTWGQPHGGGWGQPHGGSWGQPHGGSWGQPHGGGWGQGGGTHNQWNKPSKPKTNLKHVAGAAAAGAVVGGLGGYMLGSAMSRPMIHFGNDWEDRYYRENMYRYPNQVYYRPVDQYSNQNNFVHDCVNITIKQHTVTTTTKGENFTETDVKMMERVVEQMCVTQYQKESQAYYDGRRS"}, "source": "paper PMC6922452", "about": "(PLoS Pathogens, 2019)", "binders": {"B1": {"name": "anti-PrP monoclonal antibody POM1 (antibody, V domains shown)", "VH": "QVQLQQSGTELVMPGASVKMSCKASGYTFTDYWMHWVKQRPGQGLEWIGSIDPSDSYTSHNEKFKGKATLTVDESSSTAYMQLSSLTSEDSAVYFCSRSGYGYYAMEYWGQGTSVTVSS", "VL": "DIVLTQSPAILSVSPGERVSFSCRASQNIGTSIHWYQQRTNESPRLIIKYASESISGIPSRFSGSGSGTDFTLSINSVESEDIADYYCQQSNTWPYTFGGGTKLELK"}}, "molecular_target": "recombinant mouse prion protein MoPrP(23–230) (mouse, UniProt P04925)", "assay": "ELISA", "settings": "both partners purified", "data": [{"binder": "B1", "values": [{"measurement": "binding result", "value": "binds"}]}]}
